Here are results for five molecules from the supplement of paper PMC9931576.

The labels stand for the following.
B1: BD58-0540 (protein)
chain 1: QVQLQESGPRLVKPSETLSLTCTVSGDSISGYYWSWIRQPPGKGLEWIGYIYVSGSADYNPSLNSRVTISVDTSKNQFSLKLISVTAADTAVYYCAKGNNGGDWFDPWGQGTLVTVSS
chain 2: DIVMTQSPDSLAVSLGERATINCKSSQSVLYSSNNQNYLVWYQQKPGQPPKLLIYWASTRESGVPDRFSGSGSGTDFTLTISSLQAEDVAVYYCQQYYSTPLTFGGGTKVEIK
B2: BD58-0506 (protein)
chain 1: EVQLVESGGGLVKPGGSLRLSCAASEFTFFSYQMDWVRQAPGKGLEWVSSISSGSSYIYYADSVKGRFTISRDDAKNSLYLQMHSLRAEDTAVYYCARDSPRGYLDLVAGYGMDVWGQGTTVTVSS
chain 2: EIVLTQSPATLSLSPGERATLSCRASQNVSSFLAWYQQKPGQPPRLLIYDASNRATGIPARFSGSGSGTDFTLTISTLEPEDFALYYCQQRSNWPPFSFGQGTKLEIK
B3: BD58-0519 (protein)
chain 1: EVQLVESGGGVVQPGGSLRLSCAASGFTFDDYAMHWVRQAPGKGLEWVSLIGGDGGSTYYADSVKGRFTISRDNSRNSLYLQMNSLRSEDTALYYCAKGGHKWELLIAYYYGMDVWGQGTTVTVSS
chain 2: QSALTQPASVSGSPGQSITVSCTGTSSDVGGYNYVSWYQQHPDKAPKLIVYDVSLRPSGVSNRFSGSKSGNTASLTISGLQAEDEADYYCSSYTSSNTPLVFGGGTKLTVL
B4: BD58-0515 (protein)
chain 1: EVQLVQSGAEVKKPGESLKISCKGSGFSFTSYWIAWVRQTPGKGLEWMGIIYPDDSDTIYSPPFQGRVTISADKSITTAYLQWSSLEVSDTAMYYCARGMVRDAFDLWGQGTMVTVSS
chain 2: DIQMTQSPSSLSASVGDRVTITCRASQGVSTSLAWYQQKPGTAPKLLLYGASRMESGVPSRFSGSGSGTHFTLTISSLQPEDFATYYCQQYYSTLVTFGGGTKVEIK
B5: BD58-0533 (protein)
chain 1: EVQLVQSGAEVKKPGESLKVSCKGSGYNFTRYWIGWVRQMPGKGLEWMGIIYPGNSDTTYSPSFQGQVTISADKSISTAYLQWSSLKASDSAMYYCARHGALDPTDYYYGMDVWAQGTTVTVSS
chain 2: DIQMTQSPSSLSASVGDRVTITCRASHGISNYLNWYQQKPGKAPKLLIYAASSLQSGVPSRFSGGGSGTDFTLTISSLQPEDFATYYCQQSYSTLFTFGPGTKVDIK

Human monoclonal antibodies against the spike receptor-binding domain (heavy:light variable regions). IC50 against pseudoviruses bearing the spike of naturally observed variants; lower = stronger; >10 µg/ml means not reached at the top dose. No active / inactive call. The stated detection limit is 0.0005 µg/ml; values near or below 0.001 µg/ml lie at the floor of the assay.

The target of the first test is SARS-CoV-2 Omicron BA.1 spike pseudovirus. Kind of test: pseudovirus neutralization IC50; higher = weaker neutralization. As to the method:
(§1)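 Single-round VSV luciferase pseudovirus mixed with antibody dilutions for 1 h and put on Huh-7 cells for about a day; IC50 from the dose curve.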
On to B1, for which the “pseudovirus neutralization IC50” value is 0.00154 µg/mL.

On to B2, for which the “pseudovirus neutralization IC50” value was determined as 0.0023 µg/mL.

For the molecule B3, the “pseudovirus neutralization IC50” value turned out to be 0.549 µg/mL.

As for B4, the “pseudovirus neutralization IC50” value is 0.000436 µg/mL.

As for B5, the “pseudovirus neutralization IC50” value is over 10 µg/mL.

The next test addresses SARS-CoV-2 Omicron BA.2 spike pseudovirus. The test is described as above. As to the method: as §1
In the case of B1, the “pseudovirus neutralization IC50” value turned out to be 0.689 µg/mL.

Consider B2, for which the “pseudovirus neutralization IC50” value stood at 0.00374 µg/mL.

In the case of B3, the “pseudovirus neutralization IC50” value came to 0.00185 µg/mL.

On to B4, for which the “pseudovirus neutralization IC50” value was found to be 0.000926 µg/mL.

For B5, the “pseudovirus neutralization IC50” value came out at 0.00219 µg/mL.

The next test deals with SARS-CoV-2 Omicron BA.2.75 spike pseudovirus. The test is described as above. As to the method: as §1
Regarding B1, the “pseudovirus neutralization IC50” value was over 10 µg/mL.

Consider B2, for which the “pseudovirus neutralization IC50” value was over 10 µg/mL.

With B3, the “pseudovirus neutralization IC50” value stood at 0.191 µg/mL.

Take B4: the “pseudovirus neutralization IC50” value worked out at 0.00413 µg/mL.

Consider B5, for which the “pseudovirus neutralization IC50” value was 0.145 µg/mL.

The target in another test is SARS-CoV-2 Omicron BA.2.75.2 spike pseudovirus. Described as above. As for the experimental part: as §1
Take B1: the “pseudovirus neutralization IC50” value was over 10 µg/mL.

In the case of B2, the “pseudovirus neutralization IC50” value is over 10 µg/mL.

As for B3, the “pseudovirus neutralization IC50” value turned out to be 0.327 µg/mL.

B4: the “pseudovirus neutralization IC50” value came to 0.0189 µg/mL.

Turning to B5, the “pseudovirus neutralization IC50” value stood at 0.141 µg/mL.

A further test deals with SARS-CoV-2 Omicron BA.5 spike pseudovirus. The description is as above. As for the experimental part:
as §1
On to B1, for which the “pseudovirus neutralization IC50” value was over 10 µg/mL.

B2: the “pseudovirus neutralization IC50” value is over 10 µg/mL.

As to B3, the “pseudovirus neutralization IC50” value is over 10 µg/mL.

In the case of B4, the “pseudovirus neutralization IC50” value turned out to be 0.000829 µg/mL.

Turning to B5, the “pseudovirus neutralization IC50” value was 0.00347 µg/mL.

The next test has as its target SARS-CoV-2 Omicron BM.1.1.1 spike pseudovirus. Described as above. As for the experimental part: as §1
For B1, the “pseudovirus neutralization IC50” value was over 10 µg/mL.

As to B2, the “pseudovirus neutralization IC50” value was over 10 µg/mL.

On to B3, for which the “pseudovirus neutralization IC50” value was over 10 µg/mL.

Take B4: the “pseudovirus neutralization IC50” value was 0.0277 µg/mL.

Regarding B5, the “pseudovirus neutralization IC50” value came out at 0.148 µg/mL.

In another test the target is SARS-CoV-2 Omicron BQ.1.1 spike pseudovirus. The test is described as above. As for the experimental part:
as §1
For B1, the “pseudovirus neutralization IC50” value was over 10 µg/mL.

Regarding B2, the “pseudovirus neutralization IC50” value is over 10 µg/mL.

On to B3, for which the “pseudovirus neutralization IC50” value was over 10 µg/mL.

Regarding B4, the “pseudovirus neutralization IC50” value was over 10 µg/mL.

Consider B5, for which the “pseudovirus neutralization IC50” value was 0.00827 µg/mL.

The target in a further test is SARS-CoV-2 Omicron BR.2 spike pseudovirus. Described as above. As for the experimental part: as §1
B1: the “pseudovirus neutralization IC50” value is over 10 µg/mL.

On to B2, for which the “pseudovirus neutralization IC50” value is over 10 µg/mL.

As for B3, the “pseudovirus neutralization IC50” value is over 10 µg/mL.

In the case of B4, the “pseudovirus neutralization IC50” value is 0.0287 µg/mL.

On to B5, for which the “pseudovirus neutralization IC50” value came out at 0.163 µg/mL.

For another test, the target named is SARS-CoV-2 Omicron CA.1 spike pseudovirus. Described as above. As to the method: as §1
B1: the “pseudovirus neutralization IC50” value is over 10 µg/mL.

As to B2, the “pseudovirus neutralization IC50” value is over 10 µg/mL.

Take B3: the “pseudovirus neutralization IC50” value is over 10 µg/mL.

B4: the “pseudovirus neutralization IC50” value turned out to be 0.089 µg/mL.

With B5, the “pseudovirus neutralization IC50” value was found to be 0.187 µg/mL.

The target in the next test is SARS-CoV-2 Omicron XBB spike pseudovirus. The test is described as above. As for the experimental part: as §1
Turning to B1, the “pseudovirus neutralization IC50” value is over 10 µg/mL.

For the molecule B2, the “pseudovirus neutralization IC50” value was over 10 µg/mL.

Turning to B3, the “pseudovirus neutralization IC50” value was over 10 µg/mL.

As to B4, the “pseudovirus neutralization IC50” value is over 10 µg/mL.

Consider B5, for which the “pseudovirus neutralization IC50” value is over 10 µg/mL.

The next test concerns the target SARS-CoV-2 early D614G spike pseudovirus. The description is as above. As for the experimental part:
as §1
With B1, the “pseudovirus neutralization IC50” value is over 10 µg/mL.

Regarding B2, the “pseudovirus neutralization IC50” value is over 10 µg/mL.

For the molecule B3, the “pseudovirus neutralization IC50” value was over 10 µg/mL.

Consider B4, for which the “pseudovirus neutralization IC50” value was over 10 µg/mL.

Consider B5, for which the “pseudovirus neutralization IC50” value was over 10 µg/mL.
